Anti-infective test results gathered from many reports (values: NIAID ChemDB through PubChem).

All rows: host cell toxicity; cell line: MT-4; read-out: CC50

An empty or dashed field is not shown. Rows are shuffled and stem from different studies. CCn: concentration that lowers growth or viability of the cells by n%.

CC(C)CN(C[C@@H](O)[C@H](Cc1ccccc1)NC(=O)O[C@H]1CO[C@H]2OCC[C@H]21)S(=O)(=O)c1ccc(-c2coc(COCc3ccccc3)n2)cc1 ; read by: MTT ; result: >100 µM
O=c1nc(NO)ccn1[C@@H]1O[C@H](CO)C=C1Cl ; result: >500 µM
Cc1cn([C@H]2C[C@H](N=[N+]=[N-])[C@@H](CO)O2)c(=O)[nH]c1=O ; read by: MTT ; result: >1 µg/mL
C[C@]1(CO)O[C@@H](n2cc(F)c(N)nc2=O)[C@H](O)[C@@H]1O ; result: >100 µM
CCc1nc([N+](=O)[O-])c(N2CCN(C(=O)CCC(N)=O)CC2)n1Cc1ccccc1 ; result: ≥78.9 µg/mL
Cc1nc(CCCCCCC(=O)c2ccccc2)n2nc(NCCCCCCCCNCc3cn([C@H]4C=C[C@@H](CO)O4)c(=O)[nH]c3=O)ccc12 ; result: >10 µM
COc1cc(O)c(-c2c(C)cc(O)c3c2Cc2cccc(O)c2C3=O)c(O)c1C(C)=O ; read by: MTT ; result: 2.8 µM
CC(=O)OCCOCn1c(-c2ccccc2)c(Br)c(-c2ccccc2)c1-c1ccccc1 ; read by: MTT ; result: 16 µM
Cc1nc(CCCCCCC(=O)c2ccccc2)n2nc(NCCCCCCCCN)ccc12 ; result: >10 µM
CC(=O)Nc1ncc(-c2ccc(S(=O)(=O)N(CC(C)C)C[C@@H](O)[C@H](Cc3ccccc3)NC(=O)O[C@H]3CO[C@H]4OCC[C@H]43)cc2)[nH]1 ; read by: MTT ; result: >100 µM
COc1ccc(CCNc2nc(NC(=O)Nc3ccc4ccccc4c3)nc(Oc3cc(=O)oc4ccccc34)n2)cc1OC ; read by: MTT ; result: 12.85 µg/mL
CC1=C[C@@H](OCP(=O)(OCCSC(=O)C(C)(C)C)OCCSC(=O)C(C)(C)C)C[C@H]1n1cnc2c(N)ncnc21 ; read by: XTT ; result: 24 µM
O=C(Nc1cccc(-c2ccc(C(=O)Nc3ccc(S(=O)(=O)O)c4cc(S(=O)(=O)O)cc(S(=O)(=O)O)c34)cc2)c1)Nc1cccc(-c2ccc(C(=O)Nc3ccc(S(=O)(=O)O)c4cc(S(=O)(=O)O)cc(S(=O)(=O)O)c34)cc2)c1 ; result: >500 µg/mL
OCCOCn1c(-c2ccccc2)c(Br)c(Br)c1-c1ccccc1 ; read by: MTT ; result: 51 µM
O=C1CS/C(=N\c2nc3ccccc3s2)N1c1ccc(I)cc1 ; read by: MTT ; result: 29 µM
CCOC(=O)c1c(Cl)c(-c2ccccc2)n(COCCO)c1C ; read by: MTT ; result: 111 µM
Cc1nc(CCCCCCC(=O)c2ccccc2)n2nc(NCCCCCCCCCCCCNCc3cn([C@H]4C=C[C@@H](CO)O4)c(=O)[nH]c3=O)ccc12 ; result: 33 µM
Cc1cn([C@H]2C[C@H](N=[N+]=[N-])[C@@H](CO)O2)c(=O)[nH]c1=O ; read by: MTT ; result: >25 µg/mL
O=C(COc1nsnc1-c1cccc2ccccc12)Nc1ccc(Cl)cc1Cl ; read by: MTT ; result: >116 µM
Cc1nc(CCCCCCC(=O)c2ccccc2)n2nc(NCCCCCCCCCCCCN)ccc12 ; result: >10 µM
S=C(Nc1nc2ccccc2s1)Nc1ccccc1Br ; read by: MTT ; result: 1.6 µM
NC[C@@H]1C[C@@H](O)[C@H](n2cnc3c(N)ncnc32)O1 ; read by: trypan blue ; result: >500 µg/mL
Nc1nc2c(ncn2CCOCP(=O)(O)O)c(=O)[nH]1 ; result: >0.2 µg/mL
Cc1cn([C@H]2C=C[C@@H](CO)O2)c(=O)[nH]c1=O ; result: >100 µM
Cc1ccc(C(=O)Nc2ccc(S(=O)(=O)O)c3cc(S(=O)(=O)O)cc(S(=O)(=O)O)c23)cc1NC(=O)Nc1cc(C(=O)Nc2ccc(S(=O)(=O)O)c3cc(S(=O)(=O)O)cc(S(=O)(=O)O)c23)ccc1C ; result: >500 µg/mL
CC(C)(C)[Si](C)(C)OC[C@H]1O[C@@H]2[C@H](O[Si](C)(C)C(C)(C)C)C13OS(=O)(=O)C=C3Nc1cc(=O)[nH]c(=O)n12 ; result: 16 µM
CCOC(=O)CNc1nc(NC(=O)Nc2ccc3ccccc3c2)nc(Oc2cc(=O)oc3ccccc23)n1 ; read by: MTT ; result: >125 µg/mL
O=C(COc1nsnc1-c1cccc2ccccc12)Nc1ccccc1Cl ; read by: MTT ; result: >126 µM
O=C(CNc1ccc(C(=O)Nc2cc(S(=O)(=O)O)cc3cc(S(=O)(=O)O)cc(S(=O)(=O)O)c23)cc1)CNc1ccc(C(=O)Nc2cc(S(=O)(=O)O)cc3cc(S(=O)(=O)O)cc(S(=O)(=O)O)c23)cc1 ; result: >500 µg/mL
CC(C)(C)[Si](C)(C)OC[C@H]1O[C@@H](n2cc(C(F)(F)F)c(=O)[nH]c2=O)[C@H](O[Si](C)(C)C(C)(C)C)C12OS(=O)(=O)C=C2N ; result: 14 µM
CNc1ccn([C@@H]2O[C@H](CO)C=C2Cl)c(=O)n1 ; result: >500 µM
CCc1nc([N+](=O)[O-])c(N2CCN(C(=O)CSc3ccccc3)CC2)n1Cc1ccccc1 ; result: 4.17 µg/mL
CCn1c(C)c(C(=O)OC)c(C(=O)OC)c1Cc1ccccc1 ; result: 69 µM
Nc1ncnc2c1ccn2CCOCP(=O)(O)O ; result: >7.56 µg/mL
COc1cc(O)c2c(c1)C(=O)c1c(cc3c(c1O)-c1c(cc(C)c(C(=O)N[C@H](C)C(=O)O)c1O)[C@H](O[C@@H]1O[C@H](C)[C@H](O)[C@H](O[C@@H]4OC[C@@H](O)[C@H](O)[C@H]4O)[C@H]1O)[C@H]3O)C2=O ; result: >100 µg/mL
CCOC(=O)c1c([N+](=O)[O-])c(-c2ccccc2)n(COCCOC(C)=O)c1C ; read by: MTT ; result: 169 µM
CCOC(=O)CNc1nc(Nc2cccc(Cl)c2)nc(Oc2cc(=O)oc3ccccc23)n1 ; read by: MTT ; result: 56 µg/mL
O=C1CSC(c2c(Cl)cccc2Cl)N1c1ccccn1 ; read by: MTT ; result: >14.7 µM
Cc1ccc(NC(=O)COc2nsnc2-c2cccc3ccccc23)c([N+](=O)[O-])c1 ; read by: MTT ; result: 29 µM
Cc1cn([C@H]2C[C@H](N=[N+]=[N-])[C@@H](CO)O2)c(=O)[nH]c1=O ; read by: MTT ; result: 45 µM
CC(C)CN(C[C@@H](O)[C@H](Cc1ccccc1)NC(=O)O[C@H]1CO[C@H]2OCC[C@H]21)S(=O)(=O)c1ccc(-c2ccncc2)cc1 ; read by: MTT ; result: 14.8 µM
CCOCc1cn([C@H]2C=C[C@@H](CO)O2)c(=O)[nH]c1=O ; result: 59 µM
CC(C)(C)[Si](C)(C)OC[C@H]1O[C@@H](n2cc(I)c(=O)[nH]c2=O)[C@H](O[Si](C)(C)C(C)(C)C)C12OS(=O)(=O)C=C2N ; result: 12 µM
CC(C)CN(C[C@@H](O)[C@H](Cc1ccccc1)NC(=O)O[C@H]1CO[C@H]2OCC[C@H]21)S(=O)(=O)c1ccc(-c2coc(-c3ccc([N+](=O)[O-])cc3)n2)cc1 ; read by: MTT ; result: >100 µM
Nc1ncnc2c1ncn2[C@@H]1O[C@H](CO)C[C@H]1N ; read by: trypan blue ; result: 220 µg/mL
Nc1nc(=S)c2ncn(CCOCP(=O)(O)O)c2[nH]1 ; result: >9.5 µg/mL
NC[C@H]1O[C@@H](n2cnc3c(N)ncnc32)C[C@@H]1O ; read by: trypan blue ; result: >500 µg/mL
C[C@]1(CO)O[C@@H](n2cnc3c(=O)[nH]c(N)nc32)[C@H](O)[C@@H]1O ; result: >100 µM
Cc1cn([C@@H]2O[C@H](CO[Si](C)(C)C(C)(C)C)[C@@]3(OS(=O)(=O)C=C3N)[C@H]2O[Si](C)(C)C(C)(C)C)c(=O)nc1N(C)C ; result: 62 µM
COc1ncnc2c1ncn2C(C)CO ; result: >100 µM
O=c1[nH]cnc2nc(-c3ccccn3)c(-c3ccccn3)nc12 ; read by: MTT / absorbance ; result: 50.52 µM
CCc1nc([N+](=O)[O-])c(N2CCN(C(=O)OCn3c4ccccc4c4ccccc43)CC2)n1Cc1ccccc1 ; result: 17.95 µg/mL
Cc1ccnc2c1NC(=O)c1cccnc1N2C1CC1 ; read by: MTT / absorbance ; result: >4 µM
CCc1ccc(C(=O)Nc2ccc(S(=O)(=O)O)c3cc(S(=O)(=O)O)cc(S(=O)(=O)O)c23)cc1NC(=O)c1cccc(NC(=O)Nc2cccc(C(=O)Nc3cc(C(=O)Nc4ccc(S(=O)(=O)O)c5cc(S(=O)(=O)O)cc(S(=O)(=O)O)c45)ccc3CC)c2)c1 ; result: >50 µg/mL
CC(C)(C)[Si](C)(C)OC[C@H]1O[C@@H](n2c(C#N)cc(=O)[nH]c2=O)[C@H](O[Si](C)(C)C(C)(C)C)C12OS(=O)(=O)C=C2N ; result: 11 µM
O=C(CSc1nc2nc(C3=CCC=C=N3)c(-c3ccccn3)nc2c(=O)[nH]1)c1ccccc1 ; read by: MTT / absorbance ; result: 41.88 µM
NC[C@H]1O[C@@H](n2cnc3c(N)ncnc32)C[C@H]1N ; read by: trypan blue ; result: >500 µg/mL
Nc1ccn([C@@H]2O[C@H](CO)C=C2Cl)c(=O)n1 ; result: >500 µM
S=C(Nc1ccc(I)cc1)Nc1nc2ccccc2s1 ; read by: MTT ; result: 9.5 µM
Cc1nc(-c2ccc(S(=O)(=O)N(CC(C)C)C[C@@H](O)[C@H](Cc3ccccc3)NC(=O)O[C@H]3CO[C@H]4OCC[C@H]43)cc2)co1 ; read by: MTT ; result: >100 µM
Cc1cn([C@H]2C=C[C@@H](OCP(=O)(O)O)O2)c(=O)[nH]c1=O ; result: >600 µM
CC(Oc1nsnc1-c1cccc2ccccc12)C(=O)Nc1ccccc1Cl ; read by: MTT ; result: ≥17 µM
CCc1nc([N+](=O)[O-])c(N2CCN(C(=O)CCC(=O)OC)CC2)n1Cc1ccccc1 ; result: 44.67 µg/mL
Clc1nccc2nc(-c3cccs3)cnc12 ; read by: MTT / absorbance ; result: 5.23 µM
CCOC(=O)CNc1nc(NC(=O)Nc2ccc(F)cc2)nc(Oc2cc(=O)oc3ccccc23)n1 ; read by: MTT ; result: >125 µg/mL
O=c1c2nc(-c3ccccn3)c(-c3ccccn3)nc2nc2scc(-c3ccccc3)n12 ; read by: MTT / absorbance ; result: 2.52 µM
CCOP(=O)(O)COCCn1cnc2c(=O)[nH]c(N)nc21 ; result: >2.6 µg/mL
CC(CO)n1cnc2c(Cl)nc(N)nc21 ; result: >100 µM
CC1=CN([C@H]2C[C@H](N=[N+]=[N-])[C@@H](CO)O2)Cn2nnnc21 ; result: 39 µM
CC(Oc1nsnc1-c1cccc2ccccc12)C(=O)Nc1ccccc1F ; read by: MTT ; result: 52 µM
NC[C@H]1O[C@@H](n2cnc3c(N)ncnc32)C[C@@H]1N ; read by: trypan blue ; result: >500 µg/mL
CCc1nc([N+](=O)[O-])c(N2CCN(C(=O)CSCc3ccccc3)CC2)n1Cc1ccccc1 ; result: 8.14 µg/mL
NC[C@@H]1C[C@H](N)[C@H](n2cnc3c(N)ncnc32)O1 ; read by: trypan blue ; result: >500 µg/mL
FC(F)(F)c1cccc(NC(=S)Nc2nc3ccccc3s2)c1 ; read by: MTT ; result: 5.8 µM
c1ccc(COCC2OC(OC3C4COC(O4)C(OCc4ccccc4)C3OCc3ccccc3)C(OCc3ccccc3)C(OCc3ccccc3)C2OCc2ccccc2)cc1 ; read by: MTT ; result: >200 µg/mL
Cc1cc(C(C)(C)C)ccc1NC(=S)Nc1nc2ccccc2s1 ; read by: MTT ; result: 8.6 µM
CCOC(=O)c1c(Cl)c(-c2ccccc2)n(COCCOC(C)=O)c1C ; read by: MTT ; result: 82 µM
Cc1cn([C@@H]2O[C@H](CO)[C@H](O)[C@H]2F)c(=O)[nH]c1=O ; result: >500 µM
CCOC(=O)c1c([N+](=O)[O-])c(-c2ccccc2)n(COCCOC(C)=O)c1-c1ccccc1 ; read by: MTT ; result: 96 µM
Nc1c(-c2nccc(=O)[nH]2)ncn1[C@@H]1O[C@H](CO)[C@@H](O)[C@H]1O ; result: >1500 µM
N#Cc1ccc(Cn2cc(COc3nsnc3-c3cccc4ccccc34)nn2)cc1 ; read by: MTT ; result: 13 µM
N#Cc1c(N)c(-c2ccccc2)n(COCCO)c1-c1ccccc1 ; read by: MTT ; result: >300 µM

A second listing of 4 rows from above:

smiles | read by | result
O=c1nc(NO)ccn1[C@@H]1O[C@H](CO)C=C1Cl | - | >500 µM
O=c1[nH]cnc2nc(-c3ccccn3)c(-c3ccccn3)nc12 | MTT / absorbance | 50.52 µM
CCOCc1cn([C@H]2C=C[C@@H](CO)O2)c(=O)[nH]c1=O | - | 59 µM
Nc1ncnc2c1ncn2[C@@H]1O[C@H](CO)C[C@H]1N | trypan blue | 220 µg/mL